The test system of the data set is O=C(O)C=CC=C(O)C(=O)O. Kind of data set: purified protein. The conditions noted are these: 10 mM Na2HPO4 pH 7.3, 22 °C.

As usually defined, the Km is the concentration of substrate that gives half-maximal velocity. As usually defined, the kcat is the maximal rate divided by the concentration of active sites. What is called kcat/Km is the turnover number divided by the Michaelis constant. With “fused 4-OT (fused 4-oxalocrotonate tautomerase) (Burkholderia lata; R105A)”, the Km worked out at 213 ± 18 µM, the kcat amounted to 313 ± 15 s⁻¹ and the kcat/Km was found to be 1.47e+06 M⁻¹ s⁻¹.

On to “fused 4-OT (fused 4-oxalocrotonate tautomerase) (Burkholderia lata; P2A)”, for which the Km is 221 ± 11 µM, the turnover number (kcat) was determined as 3.4 ± 0.1 s⁻¹ and the kcat/Km was determined as 15400 M⁻¹ s⁻¹.
